Each compound was assayed on Staphylococcus aureus (assay: Antibacterial activity against Staphylococcus aureus MRSA ATCC 43300 (CO-ADD:GP_020); MIC in CAMBH media using NBS plates, by Resazurin F(560/590)). Conditions: Concentration 20.0 uM.
Format: functional
Compound `c1cc(-c2nn[nH]n2)ccc1-c1nn[nH]n1` has an inhibition of 4.9%.
With `O=[N+]([O-])c1ccc(Nc2ccc(Oc3ccc([N+](=O)[O-])cc3[N+](=O)[O-])cc2)c([N+](=O)[O-])c1` the inhibition was 25.9%.
`O=P1(N(CCCl)CCCl)OCCC2CCCCN21` (configuration not stated) gave an inhibition of 6.84%.
`O=C(Nc1cc([As](=O)(O)O)ccc1O)c1ccccc1` showed an inhibition of -0.05%.
`O=[As]1(O)c2ccccc2-c2ccccc21` gave an inhibition of 0.14%.
Work on `O=[As](O)(c1ccccc1)c1ccc(O)cc1` yielded an inhibition of 9.08%.
`O=[As](O)(c1ccc(Cl)cc1)C1CCCCC1O` (configuration not stated) showed an inhibition of 16.2%.
`Nc1ccc([As](=O)(O)O)c(O)c1` was tested, and the inhibition was -0.35%.
In the case of `O=[As](O)(O)c1cccnc1`, the inhibition is reported as -0.56%.
`O=C(O)CNc1ccc([As](=O)(O)O)cc1` showed an inhibition of 1.94%.
`C[As](=O)(O)c1cccc(C(=O)O)c1` showed an inhibition of 17%.
In the case of `O=[As](O)(c1cccs1)c1cccs1`, the inhibition is reported as 12.7%.
Work on `CC(=O)Nc1ccc([As](=O)(O)O)cc1` yielded an inhibition of 2.57%.
Compound `CCOP(=O)(Nc1ccc(C)cn1)OCC` has an inhibition of 1.14%.
`CCOC(=O)Nc1ccc([As](=O)(O)O)c(O)c1` gave an inhibition of -8.08%.
In the case of `COc1ccc(O)c2c(=O)c3c(OC)cc4c(c3oc12)[C@@H]1C=CO[C@@H]1O4`, the inhibition is reported as 23.3%.
For `Nc1cccc2c([As](=O)(O)O)cccc12`, the inhibition was -4.59%.
In the case of `Nc1cccc([As](=O)(O)c2ccccc2)c1`, the inhibition is reported as 10.7%.
In the case of `Nc1ccc([As](=O)(O)c2ccc([N+](=O)[O-])cc2)cc1`, the inhibition is reported as 4.19%.
With `Nc1cccc2ccc([As](=O)(O)O)cc12` the inhibition was -5.17%.
`O=[As](O)(c1cccc(O)c1)c1cccc(O)c1` was tested, and the inhibition was 7.27%.
`CCCOP(=S)(Nc1nc(N)cc(O)n1)OCCC` gave an inhibition of 9.68%.
`COc1cc(I)ccc1[As](=O)(O)O` gave an inhibition of 5.35%.
In the case of `O=C(O)COc1ccc([As](=O)(O)O)cc1[N+](=O)[O-]`, the inhibition is reported as -6.06%.

These compounds were tested on Acinetobacter baumannii (assay: Antibacterial activity against Acinetobacter baumannii ATCC 19606 (CO-ADD:GN_034); MIC in CAMBH media using NBS plates, by Resazurin F(560/590)). Conditions: Concentration 20.0 uM.
Format: functional
With `c1cc(-c2nn[nH]n2)ccc1-c1nn[nH]n1` the inhibition was 13%.
In the case of `O=[N+]([O-])c1ccc(Nc2ccc(Oc3ccc([N+](=O)[O-])cc3[N+](=O)[O-])cc2)c([N+](=O)[O-])c1`, the inhibition is reported as -4.57%.
With `O=P1(N(CCCl)CCCl)OCCC2CCCCN21` (configuration not stated) the inhibition was -9.23%.
For `O=[As]1(O)c2ccccc2-c2ccccc21`, the inhibition was 13.4%.
With `O=[As](O)(c1ccccc1)c1ccc(O)cc1` the inhibition was 4.68%.
`O=[As](O)(c1ccc(Cl)cc1)C1CCCCC1O` (configuration not stated) was tested, and the inhibition was 14.1%.
In the case of `O=C(O)CNc1ccc([As](=O)(O)O)cc1`, the inhibition is reported as 15.6%.
`C[As](=O)(O)c1cccc(C(=O)O)c1` showed an inhibition of 5.45%.
`O=[As](O)(c1cccs1)c1cccs1` was tested, and the inhibition was 5.86%.
`CC(=O)Nc1ccc([As](=O)(O)O)cc1` showed an inhibition of 12%.
`CCOP(=O)(Nc1ccc(C)cn1)OCC` gave an inhibition of -9.45%.
In the case of `O=C(O)c1ccccc1[As](=O)(O)O`, the inhibition is reported as -6.05%.
`COc1ccc(O)c2c(=O)c3c(OC)cc4c(c3oc12)[C@@H]1C=CO[C@@H]1O4` gave an inhibition of -1.59%.
With `Nc1cccc2c([As](=O)(O)O)cccc12` the inhibition was 22.8%.
`CCOC(=O)Nc1cccc([As](=O)(O)O)c1` was tested, and the inhibition was 11.7%.
`Nc1cccc([As](=O)(O)c2ccccc2)c1` was tested, and the inhibition was 8.84%.
`Nc1cccc2ccc([As](=O)(O)O)cc12` showed an inhibition of 12.4%.
Compound `O=[As](O)(c1cccc(O)c1)c1cccc(O)c1` has an inhibition of 8.02%.
`COc1cc(I)ccc1[As](=O)(O)O` was tested, and the inhibition was 9.97%.

The compounds below were run on Escherichia coli (assay: Antibacterial activity against Escherichia coli ATCC 25922 (CO-ADD:GN_001); MIC in CAMBH media using NBS plates, by Resazurin F(560/590)). Conditions: Concentration 20.0 uM.
Format: functional
In the case of `c1cc(-c2nn[nH]n2)ccc1-c1nn[nH]n1`, the inhibition is reported as -1.52%.
`O=[N+]([O-])c1ccc(Nc2ccc(Oc3ccc([N+](=O)[O-])cc3[N+](=O)[O-])cc2)c([N+](=O)[O-])c1` showed an inhibition of 13.1%.
`O=P1(N(CCCl)CCCl)OCCC2CCCCN21` (configuration not stated) showed an inhibition of 7.35%.
Compound `O=C(Nc1cc([As](=O)(O)O)ccc1O)c1ccccc1` has an inhibition of 9.88%.
In the case of `O=[As]1(O)c2ccccc2-c2ccccc21`, the inhibition is reported as -4.58%.
For `O=[As](O)(c1ccccc1)c1ccc(O)cc1`, the inhibition was 3.49%.
`O=[As](O)(c1ccc(Cl)cc1)C1CCCCC1O` (configuration not stated) was tested, and the inhibition was 4.28%.
`Nc1ccc([As](=O)(O)O)c(O)c1` showed an inhibition of 8.42%.
Work on `O=[As](O)(O)c1cccnc1` yielded an inhibition of 6.79%.
`O=C(O)CNc1ccc([As](=O)(O)O)cc1` gave an inhibition of -7.75%.
Work on `C[As](=O)(O)c1cccc(C(=O)O)c1` yielded an inhibition of 18%.
With `O=[As](O)(c1cccs1)c1cccs1` the inhibition was 17%.
In the case of `CC(=O)Nc1ccc([As](=O)(O)O)cc1`, the inhibition is reported as 0.84%.
`CCOP(=O)(Nc1ccc(C)cn1)OCC` was tested, and the inhibition was 7.53%.
For `CCOC(=O)Nc1ccc([As](=O)(O)O)c(O)c1`, the inhibition was -0.82%.
Work on `O=C(O)c1ccccc1[As](=O)(O)O` yielded an inhibition of 3.88%.
`COc1ccc(O)c2c(=O)c3c(OC)cc4c(c3oc12)[C@@H]1C=CO[C@@H]1O4` was tested, and the inhibition was 17.6%.
`Nc1cccc2c([As](=O)(O)O)cccc12` gave an inhibition of 15.7%.
For `Nc1cccc([As](=O)(O)c2ccccc2)c1`, the inhibition was -0.33%.
With `Nc1ccc([As](=O)(O)c2ccc([N+](=O)[O-])cc2)cc1` the inhibition was 9.29%.
With `O=[As](O)(c1cccc(O)c1)c1cccc(O)c1` the inhibition was -5.83%.
`CCCOP(=S)(Nc1nc(N)cc(O)n1)OCCC` gave an inhibition of 8.45%.
Work on `COc1cc(I)ccc1[As](=O)(O)O` yielded an inhibition of 1.31%.
In the case of `O=C(O)COc1ccc([As](=O)(O)O)cc1[N+](=O)[O-]`, the inhibition is reported as 5.36%.
